System: L. (L.) infantum intracellular amastigotes
Experiment: Activity against intracellular amastigotes in peritoneal macrophages, Giemsa staining and light microscopy
Assay type: cell-based, Leishmania (Leishmania) infantum
Conditions: selectivity index = CC50 in NCTC cells / IC50 in amastigotes
Method: L. (L.) infantum (MHOM/BR/1972/LD) promastigotes were maintained in M-199 medium supplemented with 10% heat-inactivated fetal bovine serum (FBS) (Gibco, Thermo Fisher Scientific, São Paulo, Brazil), 0.25% hemin (Sigma-Aldrich), and 5% human urine at 24 °C. Amastigotes were obtained from the spleen of previously infected hamsters by differential centrifugation. Macrophages were collected from the peritoneal cavity of BALB/c mice by washing with RPMI-1640 medium supplemented with 10% FBS, and were maintained at 37 °C in a 5% CO2-humidified incubator. Murine fibroblasts NCTC (clone L929 ATCC) were used to evaluate the cytotoxicity of the tested compounds. NCTC cells were maintained in M-199 medium supplemented with 10% FBS and 20 μg/mL gentamicin at 37 °C in a 5% CO2-humidified incubator.
Murine peritoneal macrophages were collected from the peritoneal cavity of BALB/c mice, and the macrophages were seeded at 1 × 10^5/well for 24 h in a 16-well slide. […] The parasite burden was determined by the number of infected macrophages out of 400 cells.
Data processing and statistical analyses was done with GraphPad Prism® 5.0 (GraphPad Software, Inc. La Jolla, CA, USA). For determination of antileishmanial activity and NCTC cytotoxicity, the IC50 and CC50 values were calculated after normalization using sigmoidal dose-response curves. […]

Structure (SMILES): C=C1C(=O)O[C@H]2[C@H]1CC/C(C)=C/CC[C@@]1(C)O[C@@H]21 [Parthenolide (6), Parthenolide]
- SI (NCTC/Amastigote): <1

Source: paper PMC6154613, “Investigation of the Anti-Leishmania (Leishmania) infantum Activity of Some Natural Sesquiterpene Lactones” (Molecules : A Journal of Synthetic Chemistry and Natural …, 2017)
